Results from paper PMC12474298.

B1: unnamed (parent)
chain 1: not shown
chain 2: ETKKRRRILE

Variants of: B1
Assay: FP assay
Details: with partner chain of the complex shown; parent: 609 nM

Row | Variant | Kd [µM]
1 | chain 2 R5A | 8.76
